Measured values from several laboratories, pooled; numbers as filed in NIAID ChemDB.

Common to all: tests in culture; species: Mycobacterium tuberculosis

Blank or dashed fields: not listed here.

smiles	read by	measure	dose	cells	setting	strain	result
C1=C2SC(/N=C\c3ccccc3)=NN2C(c2ccccc2)S1	resazurin	MIC	-	-	-	H37Rv	12.5 µg/mL
C=C1CCCC(C)(C)[C@H]1CC/C(C)=C/CC/C(C)=C/CO	resazurin	inhibition	6.25 µg/mL	-	-	H37Rv	61%
COC(=O)[C@@H]1CN(C(=O)CCc2ccccc2)C(=O)N1C(=O)OCc1ccccc1	BACTEC	inhibition	12.5 µg/mL	-	-	H37Rv	0%
CC(C)N=c1cc2n(-c3ccc(Cl)cc3)c3ccccc3nc-2cc1Nc1ccc(Cl)cc1	broth dilution / resazurin	MIC	-	-	-	MDR6	0.25 µg/mL
CC(C)=CCCC(C)[C@H]1CC[C@@]2(C)C3CCC4C(C)(C)[C@@H](O)CCC45CC35CC[C@]12C	-	MIC	-	-	-	H37Rv	>64 µg/mL
CCCCCCCn1c2ccccc2c2cc(CO)c(C)cc21	-	MIC	-	-	-	H37Rv	>128 µM
CC[C@H]1OC(=O)[C@H](C)[C@@H](O[C@H]2C[C@@](C)(OC)[C@@H](O)[C@H](C)O2)[C@H](C)[C@@H](O[C@@H]2O[C@H](C)C[C@H](N(C)C)[C@H]2O)[C@](C)(OC)C[C@@H](C)C(=O)[C@H](C)[C@@H](O)[C@]1(C)O	-	MIC90	-	-	-	-	1 µg/mL
CC(C)=CCC/C(C)=C/CC/C(C)=C/CC/C(C)=C/COC1CCCCO1	resazurin	inhibition	6.25 µg/mL	-	-	H37Rv	3%
O=Cc1cc2c3ccc(O)cc3[nH]c2c2ccoc12	-	MIC	-	-	-	H37Rv	51 µM
S=c1[nH]nc(Cc2cccs2)n1/N=C\c1ccc(Cl)cc1	-	inhibition	6.25 µg/mL	-	-	H37Rv (ATCC 27294)	54%
c1ccc(NCCNC2C3CC4CC(C3)CC2C4)cc1	-	MIC	-	-	-	H37Rv	25 µM
COc1nc2ccc(Br)cc2cc1[C@@H](c1ccccc1)[C@@](O)(CCN(C)C)c1cccc2ccccc12	resazurin	MIC90	-	-	-	H37Rv	0.54 µM
COC(=O)[C@H](CCl)NC(=O)OCc1ccccc1	resazurin	MIC	-	-	-	H37Rv (ATCC 27294)	50 µg/mL
CC(=O)N=C1N(/C=C2\C(=O)Oc3ccccc3C2=O)C(=O)/C(=C/c2ccccc2Cl)N1C	BACTEC	inhibition	12.5 µg/mL	-	-	H37Rv	0%
O=C1C(=O)c2ccccc2C2=C1CCC(c1ccc(Cl)cc1)O2	-	MIC	-	-	-	H37Rv	2.5 µg/mL
C=C[C@](C)(O)CC[C@H]1C(=C)CC[C@H]2C(C)(C)CCC[C@]12C	resazurin	inhibition	6.25 µg/mL	-	-	H37Rv	29%
Cc1ccc(C2CCC3=C(O2)C(=O)c2ccccc2C3=O)c(C)c1	-	MIC	-	-	-	H37Rv	>100 µg/mL
CC(=O)Oc1c(C)c2c(O)c3c1C1=C(OCOC1=C(C)C3=O)/C(C)=C\C(C)(O)C(O)C(C)C(O)C1C(=O)OC(C(C)/C=C\C=C(\C)C(=O)N2)C(C)C1O	BACTEC	inhibition	12.5 µg/mL	-	-	H37Rv	34%
c1ccc(Cc2nnc3c(-c4ccccc4)nc4ccccc4n23)cc1	-	MIC	-	-	-	-	>100 µg/mL
COc1cc([C@](O)(CCN(C)C)[C@@H](c2cc(-c3ccccc3)cnc2OC)c2cccc(OC)c2F)cc(OC)n1	resazurin	MIC90	-	-	-	H37Rv	2.54 µM
CCCN(CCC)CCNc1ccc(C)c2sc3ccccc3c(=O)c12	BACTEC	MIC bound	-	-	-	H37Rv	≤12.5 µg/mL
COc1c(N2CCNC(C)C2)c(F)cc2c(=O)c(C(=O)O)cn(C3CC3)c12	-	MIC90	-	-	-	-	0.25 µg/mL
O=C1C2=C(OC(c3ccc(Cl)cc3)CC2)C(=O)c2ccccc21	-	MIC	-	-	-	H37Rv	>100 µg/mL
CC1(C)CC[C@]2(C)CC[C@]3(C)C(=CC[C@@H]4[C@@]5(C)CC[C@H](O)C(C)(C)[C@@H]5CC[C@]43C)[C@@H]2C1	-	MIC	-	-	-	H37Rv	>64 µg/mL
C=Cc1ccc2c(c1)[nH]c1ccccc12	-	MIC	-	-	-	H37Rv	>128 µM
CC1CCCCN1CCNc1ccc(CO)c2sc3ccccc3c(=O)c12	BACTEC	inhibition	12.5 µg/mL	-	-	H37Rv	68%
O=C1C2=C(OC(c3ccccc3)CC2)C(=O)c2ccccc21	-	MIC	-	-	-	H37Rv	>100 µg/mL
COC1OC2COC(c3ccccc3)OC2C2N=C(N)N([N+](=O)[O-])C12OS(C)(=O)=O	BACTEC	inhibition	12.5 µg/mL	-	-	H37Rv	0%
O=C1C(Cl)C(c2ccccc2O)N1C1=NN2C(=CSC2c2ccc(O)cc2)S1	resazurin	MIC	-	-	-	H37Rv	3.125 µg/mL
CCOC(=O)/C=C1\CC2c3cc(OC)c(OC)cc3CCN2CC1CC	BACTEC	inhibition	12.5 µg/mL	-	-	H37Rv	13%
Cc1c(F)c(N2CCNC(C)C2)cc2c1c(=O)c(C(=O)O)cn2C1CC1	-	MIC50	-	-	-	206 isolates (susceptible)	1 µg/mL
CC1=CC[C@@]2(C)[C@@H]([C@@H]1C)[C@H]1CCC3[C@@]4(C)CC[C@H](O)C(C)(C)[C@@H]4CC[C@@]3(C)[C@]1(C)C[C@@H]2O	-	MIC	-	-	-	H37Rv	16 µg/mL
CCCCc1c(C#N)c(=O)n2c(N)c(C(=O)OCC)cnc2c1SC	-	MIC	-	VERO	-	H37Rv	6.25 µg/mL
COc1ccc2c(c1)[nH]c1c3ccoc3c(C=O)cc21	-	MIC	-	-	-	H37Rv	>128 µM
CN(C)CCNC(=O)c1cc([N+](=O)[O-])cn1C	BACTEC	MIC bound	-	-	-	H37Rv	>12.5 µg/mL
Cc1cccc(-c2nn(-c3ccccc3)cc2/C=C/c2nc3sccn3c(=O)c2-c2ccc(C#N)cc2)c1	colony count	MIC	-	-	-	H37Rv	1.9 µg/mL
Clc1ccc(C2=NN=C3C(c4ccccc4)=Nc4ccccc4N3C2)cc1	-	MIC	-	-	-	-	>100 µg/mL
NNC(=O)c1ccncc1	BACTEC	MIC	-	-	-	JHU H37Rv	0.023 µg/mL
CO[C@H]1/C=C/O[C@@]2(C)Oc3c(C)c(O)c4c(O)c(c(N(NC5CC5)NC5CC5)c(O)c4c3C2=O)NC(=O)/C(C)=C\C=C\[C@H](C)[C@H](O)[C@@H](C)[C@@H](O)[C@@H](C)[C@H](OC(C)=O)[C@@H]1C	-	MIC	-	-	-	M. bovis Ravenel	0.001 µg/mL
Cc1occc1C(=S)Nc1ccc(Cl)c(C(=O)OC2CCCC2)c1	BACTEC	MIC bound	-	-	-	H37Rv	>12.5 µg/mL
COc1ccc(/C=N\C2=NN3C(=CSC3c3ccc(N(C)C)cc3)S2)cc1	resazurin	MIC	-	-	-	H37Rv	6.25 µg/mL
CCOC(=O)C/C(=N\Nc1nc2ccccc2nc1-c1ccccc1)c1ccccc1	-	MIC	-	-	-	-	100 µg/mL
CCN(CC)c1nc2c(s1)c1c(O)c3c(O)c(C)c4c(c32)C(=O)[C@@](C)(O/C=C/[C@H](OC)[C@@H](C)[C@@H](OC(C)=O)[C@H](C)[C@H](O)[C@H](C)[C@@H](O)[C@@H](C)/C=C/C=C(/C)C(=O)N1)O4	-	MBC	-	-	-	131-4	0.5 µg/mL
O=C1C(Cl)C(c2ccc(O)cc2)N1C1=NN2C(=CSC2c2ccc(O)cc2)S1	resazurin	MIC	-	-	-	H37Rv	1.6 µg/mL
O=C1C(=O)c2ccccc2C2=C1CCC(c1ccc(F)cc1)O2	-	MIC	-	-	-	H37Rv	2.5 µg/mL
CN(C)CCNC(=O)c1cc([N+](=O)[O-])cc2c1Oc1ccccc1O2	BACTEC	MIC bound	-	-	-	H37Rv	>6.25 µg/mL
C[C@@H]1CC[C@@]2(C)C(C3=CCC4[C@@]5(C)CC[C@H](O)C(C)(C)C5CC[C@@]4(C)[C@]3(C)C[C@@H]2O)[C@H]1C	-	MIC	-	-	-	H37Rv	>64 µg/mL
c1cc2c(cc1CN1CCN(C3C4CC5CC(C4)CC3C5)CC1)OCO2	-	MIC	-	-	-	H37Rv	25 µM
Oc1ccc(C2SC=C3SC(/N=C\c4ccccc4)=NN32)cc1	resazurin	MIC	-	-	-	H37Rv	12.5 µg/mL
NC(=O)c1cnccn1	-	EC50	-	-	7 d	TMC311	>800 µg/mL
CCCCCc1cc(/C=C2/N=C(c3ccc[nH]3)C=C2OC)[nH]c1C	-	MIC	-	-	-	TAC-R	1.6 µg/mL
CC(=O)NC[C@H]1CN(c2ccc(N3CCN(Cc4ccc([N+](=O)[O-])o4)CC3)c(F)c2)C(=O)O1	-	MIC50	-	-	-	59 isolates	2 µg/mL
CCOC(=O)c1c2c(n(-c3ccccc3)c1C)C(=O)c1ccccc1C2=O	resazurin	MIC bound	-	-	-	H37Rv	>6.25 µg/mL
C=CC(C)(CCC=C(C)C)OC(C)=O	resazurin	inhibition	6.25 µg/mL	-	-	H37Rv	22%
O=C1C(=O)c2cccnc2-c2ncccc21	BACTEC	MIC	-	-	-	H37Rv	1.6 µg/mL
Cc1ccc(C2SC=C3SC(N4C(=O)C(Cl)C4c4ccccc4C)=NN32)cc1	resazurin	MIC	-	-	-	H37Rv	1.6 µg/mL
CN(C)c1ccc(/C=N\n2c(Cc3cccs3)n[nH]c2=S)c(Cl)c1	-	inhibition	6.25 µg/mL	-	-	H37Rv (ATCC 27294)	58%
CC(=O)OC/C=C(\C)CC/C=C(\C)CC/C=C(\C)CCC=C(C)C	resazurin	MIC	-	-	-	H37Rv	3.13 µg/mL
OC(c1cc(-c2ccccc2)nc2c1ccc1ccccc12)C1CCCCN1	-	MIC	-	VERO	-	H37Rv	0.39 µg/mL
Cc1ccc(-c2nn(-c3ccccc3)cc2/C=C/c2nc3sccn3c(=O)c2-c2ccc(C#N)cc2)cc1	colony count	MIC	-	-	-	H37Rv	152 µg/mL
CC1CCC(C(C)C)C2(C1)OC(CCl)CS2	BACTEC	MIC bound	-	-	-	H37Rv	>12.5 µg/mL
C=CC(C)(CC/C=C(/C)CCC=C(C)C)OC(C)=O	resazurin	inhibition	6.25 µg/mL	-	-	H37Rv	15%
C=C(C)[C@@H]1CC[C@@]2(C)[C@H]1[C@H]1CC[C@@H]3[C@@]4(C)CC[C@H](O)C(C)(C)[C@@H]4CC[C@@]3(C)[C@]1(C)C[C@@H]2O	-	MIC	-	-	-	H37Rv	64 µg/mL
C[C@@H]1CN(c2c(F)c(N)c3c(=O)c(C(=O)O)cn(C4CC4)c3c2F)C[C@H](C)N1	-	Median MIC90	-	-	-	139 strains	0.125 µg/mL
C=C(C)[C@@H]1CC[C@]2(C)CC[C@]3(C)[C@H](CC[C@@H]4[C@@]5(C)CC[C@@H](O)C(C)(C)[C@@H]5CC[C@]43C)[C@@H]12	-	MIC	-	-	-	H37Rv	4 µg/mL
O=C1C2=C(OC(c3ccc(Br)cc3)CC2)C(=O)c2ccccc21	-	MIC	-	-	-	H37Rv	>100 µg/mL
COc1ccc(C2C(Cl)C(=O)N2C2=NN3C(=CSC3c3ccc(N(C)C)cc3)S2)cc1	resazurin	MIC	-	-	-	H37Rv	3.125 µg/mL
COc1ccc(/C=N\n2c(Cc3cccs3)n[nH]c2=S)cc1	-	inhibition	6.25 µg/mL	-	-	H37Rv (ATCC 27294)	54%
COc1cc([C@@](O)(CCN(C)C)[C@@H](c2cc(-c3ccc(OC(F)(F)F)cc3)cnc2OC)c2cccc(OC)c2F)cc(OC)n1	resazurin	inhibition	1 µM	-	-	H37Rv	0%
CO[C@H]1/C=C/O[C@@]2(C)Oc3c(C)c(O)c4c(O)c(c(N(N5CCOCC5)N5CCOCC5)c(O)c4c3C2=O)NC(=O)/C(C)=C\C=C\[C@H](C)[C@H](O)[C@@H](C)[C@@H](O)[C@@H](C)[C@H](OC(C)=O)[C@@H]1C	-	MIC	-	-	-	M. bovis Ravenel	0.003 µg/mL
C=C1C(=O)OC2C1CCC(C)C1CCC(=O)C12C	BACTEC	inhibition	12.5 µg/mL	-	-	H37Rv	13%
COc1cc(C(O)(CCN(C)C)C(c2cc(-c3cccc(F)c3)cnc2OC)c2cccc(OC)c2F)cc(OC)n1	resazurin	MIC90	-	-	-	H37Rv	6.4 µM
CO[C@H]1/C=C/O[C@@]2(C)Oc3c(C)c(O)c4c(O)c(c(N(NC5CCCCC5)NC5CCCCC5)c(O)c4c3C2=O)NC(=O)/C(C)=C\C=C\[C@H](C)[C@H](O)[C@@H](C)[C@@H](O)[C@@H](C)[C@H](OC(C)=O)[C@@H]1C	-	MIC	-	-	-	M. bovis Ravenel	0.01 µg/mL
O=Cc1cc2c(cc1O)[nH]c1cc(O)ccc12	-	MIC	-	-	-	H37Rv	69 µM
CC(=O)OC/C=C(\C)CCC=C(C)C	resazurin	inhibition	6.25 µg/mL	-	-	H37Rv	26%
Nc1nc2[nH]c(=O)[nH]c2c(=O)[nH]1	BACTEC	inhibition	12.5 µg/mL	-	-	H37Rv	0%
COc1ccc2c(c1)c1cc(CO)c(C)cc1n2C	-	MIC	-	-	-	H37Rv	>128 µM
COC(=O)C1C(O)C(C)C(O)C(C)/C=C\C=C(/C)C(=O)Nc2c(C)c3c4c(c2O)C(=O)C(C)=C2OCCC(=C24)C(OC(C)=O)(C3)/C(C)=C/C(C)(O)C(O)C(C)C1O	BACTEC	MIC	-	-	-	H37Rv	≥12.5 µg/mL
Clc1ccccc1/C=N\C1=NN2C(=CSC2c2ccccc2)S1	resazurin	MIC	-	-	-	H37Rv	6.25 µg/mL
Cc1cc(Cl)ccc1N1C(=O)C(=O)C(c2nc3ccccc3s2)/C(=N/NC(=O)c2ccccc2O)C1=O	BACTEC	inhibition	12.5 µg/mL	-	-	H37Rv	9%
CCn1cc(C(=O)O)c(=O)c2cc(F)c(N3CCNCC3)cc21	-	MIC50	-	-	-	21 strains	4 µg/mL

Lines come from different laboratories, so protocols vary. A number after MIC or MFC names an inhibition level or a share of isolates. ECn is the concentration giving n% inhibition of infection, replication or growth. MIC bound: limit read from a one-dose screen. Inhibition is in % at the dose shown (toxicity tests: loss of growth or viability).